According to patent US11903388B2 (priority 2018, dated 2024):

Test system: Aspergillus parasiticus B62
Conditions: pure lichen compound in A. parasiticus culture

| Compound | aflatoxin production |
| --- | --- |
| Cc1cc(OC(=O)c2c(C)cc(O)cc2O)cc(O)c1C(=O)O [Lecanoric acid] | inhibitory effects |
| COC(=O)c1c(C)cc(O)cc1O [methyl-orsellinate] | inhibitory effects |
